The experiment relates to C. albicans. The experiment is described as follows: Fatty acid competition (antagonism) in 96-well plates. The settings on record: 48 h.

On to `O=C([O-])CCCCCCC/C=C\C#CC#Cc1ccco1.[K+]` [Compound IV″, potassium (Z)-14-(furan-2-yl)tetradeca-9-en-11,13-diynoate], for which the “effect of oleic acid / stearic acid on susceptibility” value is recorded as “oleic acid (but not stearic acid) had an antagonistic effect”.

Values taken from US8722910B2, “Diyne compositions” (Evolva AG, priority 2009, dated 2014).
